Results of unrelated studies side by side (data: NIAID ChemDB).

Common to all: growth or infection tests; agent: Mycobacterium avium; endpoint: MIC

Two numbers with a dash give a range or band.

SMILES | strain | setting | value
FC(F)(F)C(F)(F)c1nc2c(Cl)cc(Cl)cc2[nH]1 | MY330/88 |  | 62.5 µM
CCCCS(=O)(=O)NC[C@H]1O[C@H](O[C@H]2O[C@H](CNS(=O)(=O)CCC)[C@@H](O)[C@H](O)[C@H]2O)[C@H](O)[C@@H](O)[C@@H]1O | NJ3404 |  | >128 µg/mL
FC(F)(F)C(F)(F)C(F)(F)C(F)(F)c1nc2c(Cl)cc(Cl)cc2[nH]1 | MY330/88 |  | 16 µM
CCCCCCCOc1ccccc1NC(=O)OCC[NH+]1CCCC1 | MY330/88 |  | 16 µM
O=C(Nc1ccc(C(F)(F)F)cc1)c1cc(Cl)ccc1OS(=O)(=O)c1ccccc1 | 330/88 | 21 d | 125 µM
O=S(=O)(NC[C@H]1O[C@H](O[C@H]2O[C@H](CNS(=O)(=O)c3ccccc3)[C@@H](O)[C@H](O)[C@H]2O)[C@H](O)[C@@H](O)[C@@H]1O)c1ccccc1 | NJ3404 |  | >128 µg/mL
CCCCOc1ccccc1NC(=O)OC(COCC)CN1CCCCC1 | MY330/88 |  | 250 µM
Fc1ccc(C(Cn2ccnc2)NCc2ccc(-c3ccccc3)cc2)cc1 | 103317 |  | 10.7 µM
O=C(Nc1ccc(Cl)cc1)c1cc(Cl)ccc1OS(=O)(=O)c1ccccc1 | 330/88 | 21 d | 32 µM
COc1ccc(NC(=O)OCC[NH+]2CCCC2)cc1 | MY330/88 |  | >1000 µM
O=[N+]([O-])c1ccc(Sc2nc3c(Br)cc(Br)cc3[nH]2)cc1 | MY330/88 |  | 8 µM
O=C(Nc1cccc(Br)c1)c1cc(Cl)ccc1OS(=O)(=O)c1ccccc1 | 330/88 | 21 d | 16 µM
Clc1ccc(CNc2ccccc2N2CCOCC2)cc1 | 103317 |  | 25 µM
O=C(NCc1ccc(Cl)cc1)c1ncccc1O | CNCTC MY330/88 |  | 62.5 µM
FC(F)(F)C(F)(F)C(F)(F)C(F)(F)c1nc2c(Br)cc(Br)cc2[nH]1 | MY330/88 |  | 16 µM
O=C(Nc1ccc(C(F)(F)F)cc1)c1ccccc1O | CNCTC MY330/88 |  | 16 µM
CCCCCCCCNC[C@H]1O[C@H](O[C@H]2O[C@H](CNCCCCCCCC)[C@@H](O)[C@H](O)[C@H]2O)[C@H](O)[C@@H](O)[C@@H]1O | NJ3009 |  | 2 µg/mL
CCCOc1ccccc1NC(=O)OCCN(C)C | MY330/88 |  | 500 µM
O=C(Nc1cccc(F)c1)c1ncccc1S | CNCTC MY330/88 |  | 62.5 µM
Clc1ccc(/C(Cn2ccnc2)=N/OCc2ccc(-c3ccccc3)cc2)cc1 | 103317 |  | 19.9 µM
CCCCCOc1cccc(NC(=O)OC(C)CN2CCCCC2)c1 | MY330/88 |  | 32 µM
O=C(Nc1ccc(F)cc1)c1ccccc1O | CNCTC MY330/88 |  | 62.5 µM
O=[N+]([O-])c1ccc(Sc2nc3c(Br)cc(Br)cc3[nH]2)c([N+](=O)[O-])c1 | MY330/88 |  | 1000 µM
NC(N)=NC[C@H]1O[C@H](O[C@H]2O[C@H](CN=C(N)N)[C@@H](O)[C@H](O)[C@H]2O)[C@H](O)[C@@H](O)[C@@H]1O | NJ211 |  | >128 µg/mL
Clc1ccc(/C(Cn2ccnc2)=N\OCc2cccc3ccccc23)c(Cl)c1 | 103317 |  | 19.5 µM
O=C(Nc1ccc(Cl)c(Cl)c1)c1cc(Cl)ccc1OS(=O)(=O)c1ccccc1 | 330/88 | 14 d | 16 µM
O=c1oc2ccc(Br)cc2c(=O)n1-c1ccc(F)cc1 | CNCTC MY330/88 |  | 31 µM
C(=C\c1ccccc1)/COC(Cn1ccnc1)c1ccccc1 | 103317 |  | 13.2 µM
CCCCCCOc1ccc(NC(=O)OCC[NH+]2CCCC2)cc1 | MY330/88 |  | 32 µM
CCCCC(CC)CN(CC(CC)CCCC)C[C@H]1O[C@H](O[C@H]2O[C@H](CN(CC(CC)CCCC)CC(CC)CCCC)[C@@H](O)[C@H](O)[C@H]2O)[C@H](O)[C@@H](O)[C@@H]1O | NJ1854 |  | >128 µg/mL
N#Cc1ccc(-n2c(=O)oc3ccccc3c2=O)cc1 | CNCTC MY330/88 |  | 62.5 µM
CCCCCCCOc1cccc(NC(=O)OCCN2CCCCC2)c1 | MY330/88 |  | 16 µM
CCCCCCCCCCCCCCCCS(=O)(=O)NC[C@H]1O[C@H](O[C@H]2O[C@H](CNS(=O)(=O)CCCCCCCCCCCCCCCC)[C@@H](O)[C@H](O)[C@H]2O)[C@H](O)[C@@H](O)[C@@H]1O | NJ3350 |  | >64 µg/mL
O=C(Nc1cccc(F)c1)c1cc(Cl)ccc1OS(=O)(=O)c1ccccc1 | 330/88 | 14 d | 500 µM
O=[N+]([O-])c1cc(Sc2nc3c(Cl)cc(Cl)cc3[nH]2)cc([N+](=O)[O-])c1 | MY330/88 |  | 125 µM
O/N=C(\Cn1ccnc1)c1ccc(Cl)cc1 | 103317 |  | 33.9 µM
CCCCCCCCCOc1ccccc1NC(=O)OCCN1CCCCC1 | MY330/88 |  | 32 µM
Clc1ccc(C(Cn2ccnc2)NC/C=C/c2ccccc2)c(Cl)c1 | 103317 |  | 21.5 µM
CCCCCCCCS(=O)(=O)NC[C@H]1O[C@H](O[C@H]2O[C@H](CNS(=O)(=O)CCCCCCCC)[C@@H](O)[C@H](O)[C@H]2O)[C@H](O)[C@@H](O)[C@@H]1O | NJ3009 |  | 32–64 µg/mL
O=C(Nc1cccc(N2CCSCC2)c1)c1ccc(Cl)cc1 | 103317 |  | 23.1 µM
N#Cc1ccc(-n2c(=O)oc3cc(Cl)ccc3c2=O)cc1 | CNCTC MY330/88 |  | 16 µM
O=C(Nc1cccc(Cl)c1)c1ccccc1O | CNCTC MY330/88 |  | 31 µM
CCCCCCCOc1ccc(NC(=O)OC(C)CN2CCCCC2)cc1 | MY330/88 |  | 16 µM
CCCCCCCCCCCCNC[C@H]1O[C@H](O[C@H]2O[C@H](CNCCCCCCCCCCCC)[C@@H](O)[C@H](O)[C@H]2O)[C@H](O)[C@@H](O)[C@@H]1O | NJ3404 |  | 8 µg/mL
O=c1oc2ccc(Br)cc2c(=O)n1-c1cccc([N+](=O)[O-])c1 | CNCTC MY330/88 |  | 31 µM
CCCCCCOc1cccc(NC(=O)OCCN2CCCCC2)c1 | MY330/88 |  | 32 µM

Rows are shuffled and stem from different studies. Blank or dashed fields: not listed here.